Data from article PMC10044114, “Mechanisms of Antimicrobial Peptides from Bagasse against Human Pathogenic Bacteria” (Antibiotics, 2023).

What was measured:
Test in all cases: Shotgun proteomics of peptide-treated bacteria
[1] = test system: P. aeruginosa; format: cell-based, Pseudomonas aeruginosa; settings: for Differentially expressed proteins shared with oxycline / Differentially expressed proteins, unique to peptide treatment: P. aeruginosa treated 6 h, Venn diagram; for Differentially expressed proteins shared with oxycline / Differentially expressed proteins, unique to peptide treatment / Total proteins differentially expressed: LC-MS/MS; for Total proteins differentially expressed: P. aeruginosa treated 6 h with peptide
[2] = test system: Burkholderia cepacia; format: cell-based; settings: for Differentially expressed proteins shared with kanamycin / Differentially expressed proteins shared with oxycline / Differentially expressed proteins, unique to peptide treatment / Total proteins differentially expressed: LC-MS/MS; for Total proteins differentially expressed: Burkholderia cepacia treated 6 h with peptide
[3] = test system: Bacillus subtilis; format: cell-based; settings: for Differentially expressed proteins shared with ampicillin / Differentially expressed proteins shared with kanamycin / Differentially expressed proteins shared with oxycline / Differentially expressed proteins, unique to peptide treatment: Bacillus subtilis treated 6 h, Venn diagram; for Differentially expressed proteins shared with ampicillin / Differentially expressed proteins shared with kanamycin / Differentially expressed proteins shared with oxycline / Differentially expressed proteins, unique to peptide treatment / Total proteins differentially expressed: LC-MS/MS; for Total proteins differentially expressed: Bacillus subtilis treated 6 h with peptide
[4] = P. aeruginosa, proteins unique to peptide treatment, UniProt GO classification
[5] = Burkholderia cepacia treated 6 h, Venn diagram
[6] = Burkholderia cepacia, proteins unique to peptide treatment, UniProt GO classification

## NLWSNEINQDMAEF [Peptide no.3, Asn-Leu-Trp-Ser-Asn-Glu-Ile-Asn-Gln-Asp-Met-Ala-Glu-Phe, synthetic peptide from bagasse (AW6) hydrolysate; LRR receptor-like serine/threonine-protein kinase GSO2 fragment]
[1]
  Differentially expressed proteins shared with oxycline: 8
  Differentially expressed proteins, unique to peptide treatment: 136
  Total proteins differentially expressed: 198
[1]; [4]
  Share of differentially expressed proteins in category regulation of transcription and translation: 28.57%
[2]; [5]
  Differentially expressed proteins shared with kanamycin: 422
  Differentially expressed proteins shared with oxycline: 375
  Differentially expressed proteins, unique to peptide treatment: 436
  Proteins commonly perturbed by peptide no.3, kanamycin, and oxycline: 129
  Proteins commonly perturbed by peptide no.3, no.4, and oxycline: 109
[2]
  Total proteins differentially expressed: 4855
[2]; [6]
  Share of differentially expressed proteins related to regulation of transcription: 19.86%
[3]
  Differentially expressed proteins shared with ampicillin: 4
  Differentially expressed proteins shared with kanamycin: 6
  Differentially expressed proteins shared with oxycline: 9
  Differentially expressed proteins, unique to peptide treatment: 39
  Total proteins differentially expressed: 99

## VSNCL [Peptide no.4, Val-Ser-Asn-Cys-Leu, synthetic peptide from bagasse (AW6) hydrolysate; 3-ketoacyl-CoA synthase fragment]
[1]
  Differentially expressed proteins shared with oxycline: 7
  Differentially expressed proteins, unique to peptide treatment: 186
  Total proteins differentially expressed: 248
[1]; [4]
  Share of differentially expressed proteins related to regulation of transcription: 19.32%
  Share of differentially expressed proteins related to the cell membrane: 21.59%
[2]; [5]
  Differentially expressed proteins shared with kanamycin: 209
  Differentially expressed proteins shared with oxycline: 327
  Differentially expressed proteins, unique to peptide treatment: 132
  Proteins commonly perturbed by peptide no.3, no.4, and oxycline: 109
  Proteins commonly perturbed by peptide no.4 and kanamycin: 156
[2]
  Total proteins differentially expressed: 2947
[2]; [6]
  Share of differentially expressed proteins related to transmembrane transport: 27.66%
[3]; B. subtilis, proteins unique to peptide treatment, UniProt GO classification
  Share of differentially expressed proteins related to regulation of transcription: 42.31%
[3]
  Differentially expressed proteins shared with ampicillin: 4
  Differentially expressed proteins shared with kanamycin: 10
  Differentially expressed proteins shared with oxycline: 6
  Differentially expressed proteins, unique to peptide treatment: 43
  Total proteins differentially expressed: 98
